Laboratory results: US20170174752A1 (ISRAEL INSTITUTE OF BIOLOGICAL RESEARCH IIBR, published 2017)
Numbering of substitutions follows the chain as printed.

B1: MH1 (antibody, V domains shown)
VH: QLQLQESGPGLVKPSETLSLTCAVSGGSISGGYGWGWIRQPPGKGLEWVGSIYGSTGNTYYNPSLKSRVTISTDTSKNQLSLKVSSVTAADTAIYYCARARSGTLWFLEFWGQGAPVTASS
VL: QPVLTQPRSVSVSPGQTARITCGGDNIGSKSVQWYQQKPPQAPVLVIYADSERPSGIPERFSGSNSGNTATLTVSGVEAGDEADYYCQVWDSSSDHVLFGGGTRLTVLA
B2: MH73 (antibody, V domains shown)
VH: QVQLQESGPGLVKPSETLSLTCAVSGGSLSSNYWSWIRQAPGKGLEWIGHIFGGGGGTDYNPSLKSRVTISTDTSKNQFSLKLSSLAAADTAVYYCARAAIMYPNRFDVWGPGVLVTASS
VL: ELLMTQSPSSLSASVGDRVTISCRASQNIYSNLAWYQQKPGKTPKLLIYAASILQSGIPSRFSGSGSGTDYTLTITNLQPEDFGTYYCQQGFGIPYTFGQGTKVEFKA
B3: MH75 (antibody, V domains shown)
VH: QEQLVQSGGGLAKPGGSLRLSCADSGFTFSDHYMDWVRQAPGKGLEWVSRISTGGGTTWYADSVKGRFTISRENANNTLYLQMNSLRGEDTAVYYCAKVPTGYSQGVWGQGVLVTASS
VL: B1 VL with P2S, R8Q, S31N, Q33H, D50E, S51T, V74I, S92G, D95A, G100A
B4: MH77 (antibody, V domains shown)
VH: QVQLLESGPGLVKPSETLSLTCTVSGGSFSSSHWWNWIRQAPGKGLEWIGYITTSNGATYYNPSLKSRVTISTDTSKNQFSLKLSSVTAADSAVYFCARGYSNWDNWFDVWGPGVLVTVSS
VL: DIQMSQSPSSLSASVGDKVTITCQASQSVSSWLAWYRQKPGKAPKPLIYKASSLEGGVPSRFSGSGSGTDFTLTINSLQPEDFATYYCQQYNSVPYSFGHGTKVDIKA
B5: MH2 (antibody, V domains shown)
VH: EVQLVESGGGLAKPGGSLRLSCAASGFTFSDYYMDWVRQAPGKGLEWVSRISNGGGSKWYADSVKGRFTISRENAKNTLYLQMNSLRAEDTAVYYCAEVPTGYSQGVWGPGVLFTVSS
VL: QSVLTQPQSVSVSPGQTARISCGGDNIGSKNVHWYQQKPPQAPVLVIYAGTERPSGIPERFSGSNSGNTATLTISGVEAGDEADYYCQVWDGTREHVLFGGGTRLTVLA
B6: MH36 (antibody, V domains shown)
VH: EVQLVESGGGLVQPGGSLRLSCAASGFTFSNVWMNWVRQTPGKGLEWVARIKVKADGGTADYAASVKGRFTISRDDSKNTLYLQMNSLKTEDTAVYYCTTEEITVARYDYWGQGVLVTVSS
VL: QSVLTQPPSASGAPGQSVTISCSGSSSNIRGNGVHWYQQLSGMAPKLLIYNNNQRPSGVPDRFSGSKSGTSASLAITGLQSEDEADYYCEAWDNSLSGGLFGGGTRLTVLA
B7: MH49 (antibody, V domains shown)
VH: EAQLEESGPGLVKPSETLSLSCAVSGGSFRSYWWGWIRQPPGKGLEWIGSIYGSSGSTEYNPSLKSRATISRDTSKNQFSLKLSSVTAADTAVYYCARQIQFLTDAFDFWGQGLRVTVSS
VL: QPGLTQPPSASGAPGQSVTISCSGSSSDIGSHDVYWYQQLPGTAPKLLIYYSNQRPSGVPDRISGSKSGTSASLTISGLRSEDEADYYCETWENSLSGPVFGGGTRLTVLA
B8: MH67 (antibody, V domains shown)
VH: B7 VH with E1Q, A2V, E6Q, V118A
VL: DIQLTQSPSSVSASVGDRVTITCRASQAISTYLAWYLQRPGKAPELLIYYATTLHTGVASGLTGSGSGTDFTLTLSALQPVDVGTYYCQQFKTLPYTFGQGTKVDIKA
B9: MH74 (antibody, V domains shown)
VH: EVQLVQSGAEVKRPGESLKISCKTSGYSFTSYWISWVRQMPGKGLEWMGAIDPTDSDTRYNPSFQGQVTISADKSISTAYLQWSRLKASDTATYYCAKSDWSDYYGNSLDVWGRGVLVTASS
VL: QSVLTQPPSVSGAPGQRVTISCTGSNSNIGAGYYVQWYQQLPGTAPKLLIYENNKRPSGVSDRFSGSKSGTSASLTITGLQSEDEADYYCQSYDSSLSVVLFGGGTRLTVLA
B10: MH76 (antibody, V domains shown)
VH: QVQLQESGGGLAKPGGSLRLSCAASGFTFSDYYMDWVRQAPGKGLDWVSRISNGGGTTWYADSVKGRFTISRENAKNTLYLQMNSLRPEDTAVYYCATVPTATSGIGNWGQGVLVTASS
VL: QPGLTQPHSVSVSPGQTARITCGGDNIGSKNVHWYQQKPPQAPVLVIYADSERPSGIPERFSGSNSGNTATLTISGVEAGDEADYYCQVWDSSSNHVLFGGGTRLTV

Biological target: T1, ricin toxin (Ricinus communis, UniProt P02879 36-302; P02879 315-576)
Test: cell-based or functional assay

Row | Binder | PD50 (ng/ml), in vitro neutralization of ricin (30 ng/ml) in HeLa Ub-FL cells [ng/mL]
1 | B1 | 620
2 | B2 | 14200
3 | B3 | 180
4 | B4 | 600

Biological target: T1, ricin toxin
Test: ELISA, ricin-coated plate (FIG. 5A)

Row | Binder | binding result
5 | B5 | binds

Biological target: T1, ricin toxin
Test: ELISA / biolayer interferometry (FIG. 5)

Row | Binder | binding result
6 | B6 | binds
7 | B7 | binds
8 | B8 | binds
9 | B9 | binds
10 | B10 | binds
